Compound potency records, mixed from different reports. Data source: NIAID ChemDB in PubChem.

Common to all: growth or infection tests; species: Mycobacterium tuberculosis

Rows are shuffled and stem from different studies. MIC bound comes from a single tested concentration. Percent inhibition refers to the dose given; in toxicity tests it is the harm to the cells. Blank or dashed fields: not listed here.

SMILES,cell line,strain or isolate,tested at,endpoint,method,changes,setting,value
CCN1CC(c2ccccc2)=NC(C#N)=C1C#N,-,H37Rv,-,MIC,broth dilution / visual reading,-,-,12.5 µg/mL
CS(=O)CC1=NC(=N)N=C1CS(C)=O,-,H37Rv,12.5 µg/mL,inhibition,BACTEC,-,-,0%
CCc1c2c(nc3ccc(OCc4ccc(F)cc4C(F)(F)F)cc13)-c1cc3c(c(=O)n1C2)COC(=O)C3(O)CC,-,XDR,-,MIC,resazurin,Extensively drug-resistant,-,11 µM
CC(C)=CCC/C(C)=C/CNC(=O)CNC(=O)C12CC3CC(C1)CC(C(=O)NCC(=O)NC/C=C(\C)CCC=C(C)C)(C3)C2,-,H37Rv,-,MIC,BACTEC,-,-,>50 µM
CCOC(=O)c1c(O)cn2c1[nH]c1cccc3cccc2c31,-,H37Rv,-,MIC bound,resazurin,-,-,>6.25 µg/mL
C(=N\NOCC12CC3CC(C1)CC(CON/N=C/c1ccncc1)(C3)C2)/c1ccncc1,-,H37Rv,-,MIC,luminescence,-,-,>100 µg/mL
CC(C)OC1Oc2ccc([N+](=O)[O-])cc2C(=O)/C1=C\Nc1ccc(C(=O)O)c(O)c1,-,H37Rv,-,MIC,-,-,-,25 µg/mL
CCc1c2c(nc3ccc(OCc4cc(F)cc(Cl)c4)cc13)-c1cc3c(c(=O)n1C2)COC(=O)C3(O)CC,-,XDR,-,MIC,resazurin,Extensively drug-resistant,-,5.85 µM
C(=N\NOCC12CC3CC(CC(C3)C1)C2)/c1cccnc1,-,H37Rv,-,MIC,luminescence,-,-,26.9 µg/mL
CCOC(=O)CC(NCCCCCCCCCCNC(CC(=O)OCC)[C@H]1O[C@@H]2CC(C)(C)C[C@@H]2[C@H]2CC(C)(C)C[C@H]21)[C@H]1O[C@@H]2CC(C)(C)C[C@@H]2[C@H]2CC(C)(C)C[C@H]21,-,H37Rv,-,MIC,-,-,-,>25 µg/mL
COc1cc(/C=N\n2c(Cc3cccs3)n[nH]c2=S)cc(OC)c1OC,-,H37Rv (ATCC 27294),6.25 µg/mL,inhibition,-,-,-,43%
O=C([O-])C1=NN(c2ccc(S(=O)(=O)[O-])cc2)C(=O)C1N=Nc1ccc(S(=O)(=O)[O-])cc1.[Na+].[Na+].[Na+],-,H37Rv,-,MIC bound,BACTEC,-,-,>12.8 µg/mL
CCCCCCCCOc1ccc(NC(=O)OCCC[NH+]2CCCCC2)cc1,-,My 331/88,-,MIC,-,-,-,8 µM
CC1(C)O[C@H]2OC([C@H](CCO)NCCCCCCCCCN[C@@H](CCO)C3O[C@@H]4OC(C)(C)O[C@@H]4[C@H]3OCc3ccccc3)[C@H](OCc3ccccc3)[C@H]2O1,-,H37Rv,-,MIC,-,-,-,6.25 µg/mL
CCc1c2c(nc3ccc(OCc4ccccc4Cl)cc13)-c1cc3c(c(=O)n1C2)COC(=O)C3(O)CC,-,XDR,-,MIC,resazurin,Extensively drug-resistant,-,24.18 µM
CCN1C(C#N)=C(C#N)N=C(c2ccsc2)C1/C=C/c1ccc(-c2ccccc2)cc1,-,H37Rv,-,MIC,broth dilution / visual reading,-,-,12.5 µg/mL
CCOC(=O)CC(NCCCCCCCCNC(CC(=O)OCC)[C@H]1O[C@@H]2CC(C)(C)C[C@@H]2[C@H]2CC(C)(C)C[C@H]21)[C@H]1O[C@@H]2CC(C)(C)C[C@@H]2[C@H]2CC(C)(C)C[C@H]21,-,H37Rv,-,MIC,-,-,-,>25 µg/mL
CCOC1Oc2ccc(Cl)cc2C(=O)/C1=C\Nc1cccc(C(=O)O)c1O,-,H37Rv,-,MIC,-,-,-,>100 µg/mL
Cc1ccc(S(=O)(=O)N/N=C/c2oc(-c3cccc([N+](=O)[O-])c3)c(-c3cccc([N+](=O)[O-])c3)c2[N+](=O)[O-])cc1,-,H37Rv,12.5 µg/mL,inhibition,BACTEC,-,-,-19%
CCc1c2c(nc3ccc(OCc4ccc(OC)c(F)c4)cc13)-c1cc3c(c(=O)n1C2)COC(=O)C3(O)CC,-,XDR,-,MIC,resazurin,Extensively drug-resistant,-,23.56 µM
Cc1cccc(N2CCN(c3ccc4nonc4c3[N+](=O)[O-])CC2)c1,-,H37Rv,-,MIC bound,resazurin,-,-,>6.25 µg/mL
O=C1N=C2SC([N+](=O)[O-])=CN2C2=NC(=S)NC(c3ccccc3O)C12,-,H37Rv,-,MIC,agar,-,-,68.8 µM
Cc1ccc(S(=O)(=O)OC2CSSCC2OS(=O)(=O)c2ccc(C)cc2)cc1,-,H37Rv,-,MIC bound,BACTEC,-,-,>12.5 µg/mL
CC1(C)O[C@H]2OC([C@H](CCO)NCCCCCCCCN[C@@H](CCO)C3O[C@@H]4OC(C)(C)O[C@@H]4[C@H]3OCc3ccccc3)[C@H](OCc3ccccc3)[C@H]2O1,-,H37Rv,-,MIC,-,-,-,>25 µg/mL
CC(C)=CCC/C(C)=C/CNCCNCCC12CC3CC(C1)CC(CCNCCNC/C=C(\C)CCC=C(C)C)(C3)C2,-,H37Rv,-,MIC,BACTEC,-,-,1 µM
C[C@@H]1[C@@H](NC(=O)c2cc3c(F)cc(F)cc3[nH]2)C[C@H]2C[C@@H]1C2(C)C,-,KZN494,-,MIC,resazurin / fluorescence,-,multidrug-resistant,0.0039 µM
O=C(N/N=C/C12CC3CC(C1)CC(/C=N/NC(=O)c1ccncc1)(C3)C2)c1ccncc1,-,H37Rv,-,MIC,luminescence,-,-,0.04 µg/mL
CC(C)=CCC/C(C)=C/CNC(=O)CNC(=O)CC12CC3CC(C1)CC(CC(=O)NCC(=O)NC/C=C(\C)CCC=C(C)C)(C3)C2,-,H37Rv,-,MIC,BACTEC,-,-,>50 µM
COc1ccccc1NC(=O)OCCC[NH+]1CCCCC1,-,My 331/88,-,MIC,-,-,-,500 µM
CCN(CC)c1ccc2nc3c4ccccc4c(=O)cc-3n(-c3ccccc3)c2c1,VERO,H37Rv,-,MIC,BACTEC,-,-,3.13 µg/mL
CC1(C)CCC[C@@]2(C)C1CC[C@]1(C)C2CCC2[C@@]3(C)CC[C@H](C(C)(C)O)C3C[C@H](O)[C@]21C,-,-,-,MIC,-,-,-,12.5 µg/mL
CN(C)c1ccc(/C=N\n2c(Cc3cccs3)n[nH]c2=S)c(Cl)c1,-,H37Rv (ATCC 27294),6.25 µg/mL,inhibition,-,-,-,58%
CCN1C(C#N)=C(C#N)N=C(c2ccsc2)[C@@H]1/C=C/c1ccccc1,-,H37Rv,-,MIC,broth dilution / visual reading,-,-,12.5 µg/mL
O=C(N/N=C/C1C2CC3CC(C2)CC1C3)c1ccncc1,-,-,-,MIC,luminescence,-,-,0.06 µg/mL
CCOC1Oc2ccc([N+](=O)[O-])cc2C(=O)/C1=C\Nc1ccc(C(=O)O)c(O)c1,-,H37Rv,-,MIC,-,-,-,10 µg/mL
Cc1c(Cc2coc(C(=O)c3occ(Cc4cc(-c5ccc(Cl)cc5)n(-c5ccc(Cl)cc5)c4C)c3N3CCNCC3)c2N2CCNCC2)cc(-c2ccc(Cl)cc2)n1-c1ccc(Cl)cc1,-,27294,-,MIC,-,-,-,4 µg/mL
CCn1cc2c(=O)n3ncn(-c4ccc(Br)cc4)c3nc2n1,-,H37Rv,-,MIC bound,resazurin,-,-,>6.25 µg/mL
S=c1[nH]nc(Cc2cccs2)n1/N=C\c1ccccc1,-,H37Rv (ATCC 27294),6.25 µg/mL,inhibition,-,-,-,36%
CCCCC[C@]1(C(=O)CCC)CC[C@@]2(c3ccccc3)ON12,-,H37Ra,-,MIC,-,-,-,100 µg/mL
CCOC(=O)C(Cc1c[nH]c2ccccc12)NC(=O)C1(O)C(O)C2(CC)C=CCN3CCC4(c5cc(C6(C(=O)OC)CC7CC(CC)CN(CCc8c6[nH]c6ccccc86)C7)c(OC)cc5N(C)C14)C32.CS(=O)(=O)O,-,H37Rv,12.5 µg/mL,inhibition,BACTEC,-,-,1%
CCOc1ccc(NC(=O)OCCC[NH+]2CCCCC2)cc1,-,My 331/88,-,MIC,-,-,-,500 µM
CCCCCc1cc(/C=C2/N=C(c3ccc[nH]3)C=C2OC)[nH]c1C,-,RMP-R,-,MIC,-,-,-,0.8 µg/mL
CCCCCCOC1Oc2ccc(Cl)cc2C(=O)/C1=C\Nc1ccc(C(=O)O)c(O)c1,-,H37Rv,-,MIC,-,-,-,50 µg/mL
CCC(CO)n1c(C)c(CN2CCSCC2)c(CO)c1-c1ccccc1,-,27294,-,MIC,-,-,-,>16 µg/mL
CCN1CC(c2cccs2)=NC(C#N)=C1C#N,-,H37Rv,-,MIC,broth dilution / visual reading,-,-,12.5 µg/mL
O=C1CC2(C(=O)O1)C1C(=O)OC(=O)C1C1C=CC=NN12,-,H37Rv,12.5 µg/mL,inhibition,BACTEC,-,-,-3%
CCCCOc1cccc(NC(=O)OCCC[NH+]2CCCCC2)c1,-,My 331/88,-,MIC,-,-,-,32 µM
CCCC(=O)[C@@]1(CCC2OCCO2)CC[C@@]2(c3ccccc3)ON12,-,H37Ra,-,MIC,-,-,-,200 µg/mL
Cc1ccc2ccccc2c1-c1[nH]c(-c2ccc(Cl)cc2)cc1CN1CCN(Cc2ccc3c(c2)OCO3)CC1,-,27294,-,MIC,-,-,-,>16 µg/mL
Cc1ccc(/C=N\n2c(Cc3cccs3)n[nH]c2=S)cc1,-,H37Rv (ATCC 27294),6.25 µg/mL,inhibition,-,-,-,49%
CCCCCCC(C)c1ccc2c(c1)C(=O)c1nc3ccncc3c(=O)n1-2,-,H37Rv,-,MBC,-,-,-,2 µg/mL
COc1ccc(/C=N\n2c(Cc3cccs3)n[nH]c2=S)cc1OCc1ccccc1,-,H37Rv (ATCC 27294),6.25 µg/mL,inhibition,-,-,-,63%
CCOC(=O)c1csc(N)n1,-,H37Rv,6.25 µg/mL,inhibition,BACTEC,-,-,0%
C.C=C1C[C@@]23CCC4[C@@](C)(CCC[C@@]4(C)C(=O)NNC(=O)c4cccnc4)C2CC[C@]1(O[C@@H]1O[C@H](COC(=O)O)[C@@H](OC(=O)O)[C@H](OC(=O)O)[C@H]1OC1O[C@H](COC(C)=O)[C@@H](OC(=O)O)[C@H](OC(=O)O)[C@H]1OC(=O)O)C3,-,H37Rv,-,MIC,-,-,-,10 µg/mL
S=c1[nH]nc(Cc2cccs2)n1/N=C\c1ccc2c(c1)OCO2,-,H37Rv (ATCC 27294),6.25 µg/mL,inhibition,-,-,-,57%
CCCCCCCCOc1cccc(NC(=O)OCCC[NH+]2CCCCC2)c1,-,My 331/88,-,MIC,-,-,-,16 µM
O=C1c2ccccc2-c2nc3ccccc3n21,-,H37Rv,-,MIC bound,resazurin,-,-,>6.25 µg/mL
Fc1ccc(/C=N\n2c(Cc3cccs3)n[nH]c2=S)cc1,-,H37Rv (ATCC 27294),6.25 µg/mL,inhibition,-,-,-,60%
CC(C)=CCc1c2c(c3occ(-c4ccc(O)c(O)c4)c(=O)c3c1O)CCC(C)(C)O2,-,H37Rv,12.5 µg/mL,inhibition,BACTEC,-,-,31%
Nc1c(Br)cc(Br)cc1CNC1CCC(O)CC1,-,5 isolates,-,MIC,-,-,-,64 µg/mL
CCCC[C@@]1(C(=O)CCC)CC[C@@]2(c3ccccc3)ON12,-,H37Ra,-,MIC,-,-,-,100 µg/mL
CC[C@@H]1CC[C@H]2[C@@H]3N(C)c4ccccc4[C@]34C[C@@H](C[C@H]4O)N2[C@H]1O,-,H37Rv,12.8 µg/mL,inhibition,BACTEC,-,-,11%
CCCOc1ccc(NC(=O)OCCC[NH+]2CCCCC2)cc1,-,My 331/88,-,MIC,-,-,-,250 µM
O=C1C(=O)N(c2cccc(C(F)(F)F)c2)C(=S)N1c1ccccc1,-,H37Rv,-,MIC bound,BACTEC,-,-,>12.5 µg/mL
O=C(NC1Cc2ccccc2C1)c1cc2c(F)cc(F)cc2[nH]1,-,H37Rv,-,MIC,resazurin / fluorescence,-,-,3.202 µM
O=C1C=C(Nc2ccc([N+](=O)[O-])cc2)c2ccccc2C1=O,-,H37Rv,-,MIC,resazurin,-,-,≤0.1 µg/mL
CCc1c2c(nc3ccc(OCc4ccccc4C(F)(F)F)cc13)-c1cc3c(c(=O)n1C2)COC(=O)C3(O)CC,-,H37Rv,-,MIC,resazurin,-,-,11.32 µM
CC(=O)c1cc2c(cc1C(C)C)CC[C@H]1[C@](C)(C#N)CCC[C@]21C,-,H37Rv,-,MIC bound,BACTEC,-,-,>12.5 µg/mL
C=C1C[C@]23CCC4[C@@](C)(CCC[C@@]4(C)C(=O)O)C2CC[C@@]1(C)C3,-,H37Rv,-,MIC,-,-,-,50 µg/mL
CC(=O)N1C=Cc2c(c(C)c3c([nH]c4ccccc43)c2C)C1,-,H37Rv,-,MIC bound,resazurin,-,-,>6.25 µg/mL
CCc1c2c(nc3ccc(OCc4ccccc4[N+](=O)[O-])cc13)-c1cc3c(c(=O)n1C2)COC(=O)C3(O)CC,-,H37Rv,-,MIC,resazurin,-,-,5.92 µM
C[C@H]1O[C@@H](O[C@H]2[C@@H](O)C[C@H](O[C@H]3[C@@H](O)C[C@H](O[C@H]4CC[C@@]5(C)[C@H](CC[C@@H]6[C@@H]5CC[C@]5(C)[C@@H](C7=CC(=O)OC7)CC[C@]65O)C4)O[C@@H]3C)O[C@@H]2C)C[C@H](O)[C@@H]1O,-,H37Rv,-,MIC bound,BACTEC,-,-,>128 µg/mL
CO[C@H]1/C=C/O[C@@]2(C)Oc3c(C)c(O)c4c(O)c(c(/C=N/N5CCN(C)CC5)c(O)c4c3C2=O)NC(=O)/C(C)=C\C=C\[C@H](C)[C@H](O)[C@@H](C)[C@@H](O)[C@@H](C)[C@H](OC(C)=O)[C@@H]1C,-,CSU87,-,MIC,broth dilution / visual reading,-,-,>32 µg/mL

A second listing of 5 rows from above:

SMILES	cell line	strain or isolate	tested at	endpoint	method	changes	setting	value
CC(C)=CCc1c2c(c3occ(-c4ccc(O)c(O)c4)c(=O)c3c1O)CCC(C)(C)O2	-	H37Rv	12.5 µg/mL	inhibition	BACTEC	-	-	31%
C[C@@H]1[C@@H](NC(=O)c2cc3c(F)cc(F)cc3[nH]2)C[C@H]2C[C@@H]1C2(C)C	-	KZN494	-	MIC	resazurin / fluorescence	-	multidrug-resistant	0.0039 µM
CCc1c2c(nc3ccc(OCc4ccc(OC)c(F)c4)cc13)-c1cc3c(c(=O)n1C2)COC(=O)C3(O)CC	-	XDR	-	MIC	resazurin	Extensively drug-resistant	-	23.56 µM
O=C(N/N=C/C12CC3CC(C1)CC(/C=N/NC(=O)c1ccncc1)(C3)C2)c1ccncc1	-	H37Rv	-	MIC	luminescence	-	-	0.04 µg/mL
CC(C)=CCC/C(C)=C/CNC(=O)CNC(=O)C12CC3CC(C1)CC(C(=O)NCC(=O)NC/C=C(\C)CCC=C(C)C)(C3)C2	-	H37Rv	-	MIC	BACTEC	-	-	>50 µM